Molecular target: T1, Pup(43-63)-Glu(AMC)
T1 chain: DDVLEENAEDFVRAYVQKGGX

B1: Dop-His6 (deamidase of Pup with histidine tag) (protein)
chain: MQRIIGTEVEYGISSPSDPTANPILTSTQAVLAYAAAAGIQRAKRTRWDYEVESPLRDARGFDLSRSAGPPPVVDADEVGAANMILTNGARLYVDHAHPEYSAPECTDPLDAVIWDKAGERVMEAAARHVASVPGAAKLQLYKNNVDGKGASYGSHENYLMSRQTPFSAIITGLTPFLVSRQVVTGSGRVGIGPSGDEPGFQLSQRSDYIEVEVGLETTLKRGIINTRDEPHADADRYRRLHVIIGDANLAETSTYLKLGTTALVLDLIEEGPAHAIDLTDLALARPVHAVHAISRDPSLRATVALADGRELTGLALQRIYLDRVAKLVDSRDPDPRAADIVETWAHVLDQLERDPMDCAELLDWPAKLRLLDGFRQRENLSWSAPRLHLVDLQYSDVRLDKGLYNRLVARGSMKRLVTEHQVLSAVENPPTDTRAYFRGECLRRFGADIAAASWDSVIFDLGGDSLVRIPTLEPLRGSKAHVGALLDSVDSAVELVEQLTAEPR
hydrolytic activity (release of AMC, fluorescence): Pup(43-63)-Glu(AMC) (1c) was not a substrate for Dop
